# Assay results reported in PubChem BioAssay AID588549 (Broad Institute, 2011).
# The list shows a part of the results, in another mix than the full data. Active and inactive are the calls of the source. Cut-off read from the data, not from the text of the source: active = inhibition above about 8.5% (passing the limit was not always enough); inconclusive = no clear call, values can overlap the other calls.
# Test system: Mycobacterium tuberculosis FadD28 fatty-acid-AMP ligase
# Test: inhibitors of FadD28 bisubstrate probe binding, primary screen, biochemical, fluorescence polarization, single point (AID 588549)
# Conditions: at 12.5 µM, hits give high values
row,Structure (SMILES),inhibition
1,O=[N+]([O-])c1ccc2c(c1)nnn2O,inactive: -1.64%
2,CCOP1(=S)c2c(C)nn(CCC#N)c2N=C(c2ccc(F)cc2)N1C (stereo not drawn),inactive: -1.47%
3,N#CCCN(C(=O)COC(=O)C(O)(c1ccccc1)c1ccccc1)c1ccc(F)cc1,inactive: -0.72%
4,COc1cc(C(=O)NCC2(N3CCOCC3)CCCCC2)ccc1OCC(C)C,inactive: -3.49%
5,O=[N+]([O-])c1ccc(-c2cc([N+](=O)[O-])c(O)c([N+](=O)[O-])c2)cc1,inactive: 1.76%
6,O=[As](O)(c1ccc(O)cc1)c1ccccc1O,inactive: -4.87%
7,C[As](=O)(O)c1cccc(C(=O)O)c1,inactive: -5.35%
8,Cc1ccc2nc3c(c(C)c2c1)CC(C(Cl)Cl)S3 (stereo not drawn),inactive: -0.922%
9,Cc1ccc(OP(=O)(Nc2ccc([N+](=O)[O-])cn2)Oc2ccc(C)cc2)cc1,inactive: -1.66%
10,CC(C)c1ccc(OP(=O)(Nc2ccccn2)Oc2ccccc2F)cc1 (stereo not drawn),inactive: -2.04%
11,COC(=O)C1(C)COP(=O)(N2CCCCCC2)OC1 (stereo not drawn),inactive: -1.31%
12,ClCCSc1nnc(-c2cccnc2)o1,inactive: -3.69%
13,O=[N+]([O-])c1cc([N+](=O)[O-])c(-c2ccn[nH]2)s1,inactive: 1.63%
14,CCN(CC)C(=S)SC(NC=O)C(Cl)(Cl)Cl (stereo not drawn),inactive: -3.65%
15,O=C(OC1CN2CCC1CC2)c1cccc2[nH]cnc12 (stereo not drawn),inactive: -0.416%
16,CC(C)NC(=O)NP(=O)(Oc1ccccc1)Oc1ccccc1,inactive: -0.971%
17,Cc1cc(=O)[nH]c(N[N+](=O)[O-])n1,inactive: -2.2%
18,O=C(OC1CN2CCC1CC2)C12CC3CC(CC(C3)C1)C2 (stereo not drawn),inactive: -2.58%
19,Cc1c2c(nc3ccccc13)SC(C(Cl)Cl)C2 (stereo not drawn),inactive: -4.75%
20,COc1cc(I)ccc1[As](=O)(O)O,inactive: -1.53%
21,COc1ccc2nc(NP(=O)(c3ccccc3)c3ccccc3)sc2c1,inactive: -3.94%
22,O=P1(N(CCCl)CCCl)Nc2ccccc2N1,inactive: -2.1%

row,Structure (SMILES),inhibition
1,O=P1(N(CCCl)CCCl)OCCCN1CCCl (stereo not drawn),inactive: -0.973%
2,COc1ccc(N/C(=N/P(=O)(N2CCOCC2)N2CCOCC2)N2CCOCC2)cc1,inactive: -2.96%
3,O=[N+]([O-])c1cc(Oc2ccc([N+](=O)[O-])cc2C(F)(F)F)cc([N+](=O)[O-])c1,inactive: -2.2%
4,COC(=O)C1(C)COP(=O)(N2CCCC2)OC1 (stereo not drawn),inactive: -0.426%
5,COP1(=S)c2c(C)nn(CCC#N)c2N=C(c2ccc(F)cc2)N1C (stereo not drawn),inactive: 0.002%
6,O=C(Nc1ccncc1[N+](=O)[O-])c1ccc([N+](=O)[O-])cc1[N+](=O)[O-],inactive: -1.46%
7,O=C(COc1ccccc1)OC1CN2CCC1CC2 (stereo not drawn),inactive: 1.58%
8,O=C(O)C(=O)c1ccc(N(CCCl)CCCl)cc1,inactive: -3.85%
9,CCOC(=O)c1ccc(NC(=O)C(C)(CCl)SC)cc1 (stereo not drawn),inactive: -1.93%
10,CSc1ccc(Nc2c([N+](=O)[O-])cc([N+](=O)[O-])cc2[N+](=O)[O-])cc1,inactive: 1.48%
11,CCC(C)N(CC(C)C)C(=S)SC(NC(C)=O)C(Cl)(Cl)Cl (stereo not drawn),inactive: -3.27%
12,CC1CCNP(=O)(N(CCCl)CCCl)O1 (stereo not drawn),inactive: -3.53%
13,CCOC(=O)Nc1ccc([As](=O)(O)O)c(O)c1,inactive: -2.41%
14,O=C(O)C(O)c1ccc(N(CCCl)CCCl)cc1 (stereo not drawn),inactive: 0.146%
15,Cc1cc(SC(NC(=O)c2ccccc2)C(Cl)(Cl)Cl)nc(C(C)C)n1 (stereo not drawn),inactive: 0.548%
16,CCCCOc1ccc(C(=O)NCC2(N3CCCCC3)CCCCC2)cc1OC,inactive: -2.3%
17,COP(=O)(OC)N1CC1c1ccccc1 (stereo not drawn),inactive: -1.77%
18,CCOC(=O)Nc1cccc([As](=O)(O)O)c1,inactive: -1.11%
19,O=[N+]([O-])c1ccc(Nc2ccc(Oc3ccc([N+](=O)[O-])cc3[N+](=O)[O-])cc2)c([N+](=O)[O-])c1,inactive: -3.77%
20,O=P(Nc1ccccn1)(c1cccc2ccccc12)c1cccc2ccccc12,inactive: -2.32%
21,Cc1cc(SC(NC=O)C(Cl)(Cl)Cl)ncn1 (stereo not drawn),inactive: -0.808%
